Source: PubChem BioAssay AID1224833 (University of Georgia, 2016)
Here is a random part of about 12,000 reagents. Of all reagents, about 5,600 (46%) are marked active. 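Active calls cover z-scores past 1 in both directions, so they include lowered as well as raised rotavirus replication.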 Unmarked entries are inactive.

Test: 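Human genes whose knock-down alters rotavirus replication in monkey cells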 (primary screen)
Cell system: monkey MA104 kidney cells
Reagent: siRNA pool against human genes, 50 nM
Time to read-out: 48 h knock-down before infection; read 24 h after infection
Challenge: infection with rotavirus strain RV3 two days after transfection; infectious dose for this stage not given
Detection: 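z-score of rotavirus antigen signal per well, from a fluorescent immunoassay, relative to non-targeting control wells on the same plate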
Reading the numbers: z-score vs non-targeting control: higher = more rotavirus replication than with non-targeting control
Rule for the call: In these data the active calls have z-score vs non-targeting control at about -1 or lower, or at about 1 or higher
Meaning of the calls: active = z-score beyond 1 either way; inactive = z-score within 1 of zero

{"target": "ARAP3", "z-score vs non-targeting control": -0.846}
{"target": "LRRC14", "z-score vs non-targeting control": 0.291}
{"target": "NFATC2IP", "z-score vs non-targeting control": "1.13 (active)"}
{"target": "APOL6", "z-score vs non-targeting control": 0.304}
{"target": "GOSR2", "z-score vs non-targeting control": -0.763}
{"target": "ZNF394", "z-score vs non-targeting control": 0.285}
{"target": "GPR17", "z-score vs non-targeting control": -0.545}
{"target": "WDR54", "z-score vs non-targeting control": "1.05 (active)"}
{"target": "ARAP1", "z-score vs non-targeting control": "-1.45 (active)"}
{"target": "KPNA2", "z-score vs non-targeting control": -0.952}
{"target": "BCL2L12", "z-score vs non-targeting control": "-1.15 (active)"}
{"target": "TMEM94", "z-score vs non-targeting control": -0.351}
{"target": "ATP2B1", "z-score vs non-targeting control": 0.876}
{"target": "HLA-F", "z-score vs non-targeting control": -0.266}
{"target": "DIAPH3", "z-score vs non-targeting control": "1.89 (active)"}

The list goes on, starting with the last 2 of the part before.
{"target": "HLA-F", "z-score vs non-targeting control": -0.266}
{"target": "DIAPH3", "z-score vs non-targeting control": "1.89 (active)"}
{"target": "STAM", "z-score vs non-targeting control": -0.431}
{"target": "HNRNPC", "z-score vs non-targeting control": "1.33 (active)"}
{"target": "HDGF", "z-score vs non-targeting control": 0.796}
{"target": "TAX1BP3", "z-score vs non-targeting control": "2.19 (active)"}
{"target": "PCNT", "z-score vs non-targeting control": -0.883}
{"target": "PDYN", "z-score vs non-targeting control": 0.256}
{"target": "ALYREF", "z-score vs non-targeting control": 0.451}
{"target": "KRT3", "z-score vs non-targeting control": "-1.19 (active)"}
{"target": "LSAMP", "z-score vs non-targeting control": 0.342}
{"target": "RNASE13", "z-score vs non-targeting control": 0.188}
{"target": "BST1", "z-score vs non-targeting control": "1.4 (active)"}
{"target": "MIOX", "z-score vs non-targeting control": -0.5}
{"target": "LDLRAP1", "z-score vs non-targeting control": "-1.31 (active)"}
{"target": "ZIC3", "z-score vs non-targeting control": "-2.83 (active)"}
{"target": "DNASE2", "z-score vs non-targeting control": "-1.01 (active)"}
{"target": "IMPDH1", "z-score vs non-targeting control": 0.896}
{"target": "RLN3", "z-score vs non-targeting control": 0.804}
{"target": "CNR1", "z-score vs non-targeting control": -0.921}
{"target": "CLMN", "z-score vs non-targeting control": -0.044}
{"target": "SLC9D1", "z-score vs non-targeting control": -0.293}
{"target": "FAM43B", "z-score vs non-targeting control": "1.9 (active)"}
{"target": "INSYN2A", "z-score vs non-targeting control": "1.11 (active)"}
{"target": "SPEN", "z-score vs non-targeting control": -0.567}
{"target": "RAB38", "z-score vs non-targeting control": "1.93 (active)"}
{"target": "USP27X", "z-score vs non-targeting control": "-1.28 (active)"}
{"target": "PPP1R9B", "z-score vs non-targeting control": 0.153}
{"target": "FGL1", "z-score vs non-targeting control": -0.778}
{"target": "LACTB", "z-score vs non-targeting control": -0.295}
{"target": "VGLL1", "z-score vs non-targeting control": -0.47}
{"target": "RILP", "z-score vs non-targeting control": -0.253}
{"target": "HHIP", "z-score vs non-targeting control": 0.367}
{"target": "DGCR6", "z-score vs non-targeting control": -0.031}
